Anti-infective test results gathered from many reports (values: NIAID ChemDB through PubChem).

Common to all: growth or infection tests; organism: Plasmodium falciparum; measure: EC50

Neighbouring rows are from separate reports. ECn: concentration that inhibits the pathogen or its effect by n%. Blank or dashed fields: not listed here.

smiles,changes,read by,cells,strain or isolate,setting,result
N#Cc1nc2c(-c3nc4ccccc4[nH]3)c(N)n(CCCn3ccnc3)c2nc1C#N,-,hypoxanthine uptake / radiometric,Erythrocytes,NF54,-,0.3 µM
Clc1ccc2c(NCCCNc3nc(Nc4ccccc4)nc(N4CCOCC4)n3)ccnc2c1,-,-,-,W2,-,1.05 µM
COc1cc(C2=NCCN2)ccc1OCCCOc1ccc(C2=NCCN2)cc1OC,-,hypoxanthine uptake,-,D6,-,0.177 µM
CCCCCC(=O)CCCCCC(=O)NC(CCCC[NH3+])C(=O)NC(CCCC[NH3+])C(=O)CCCCCC(=O)NCCCCCC(=O)NC(CCCC[NH3+])C(N)=O,-,hypoxanthine uptake,-,NF54,-,>10 µM
N#Cc1nc2c(-c3nc4ccccc4[nH]3)c(N)n(CCc3cnc[nH]3)c2nc1C#N,-,hypoxanthine uptake / radiometric,Erythrocytes,NF54,-,0.12 µM
Cc1cccc(CCC2CC3CCCC4CC(C)NC(=N2)N34)c1,-,LDH,-,W2,-,7.71 µM
CCCCCCCCCCCC(=O)NC(CCCC[NH3+])C(=O)NC(CCCC[NH3+])C(=O)NCCCCCCCCCC(=O)NC(CCCC[NH3+])C(=O)NC(CCCC[NH3+])C(=O)NCCCCCCCCCC(=O)NC(CCCC[NH3+])C(N)=O,-,hypoxanthine uptake,-,NF54,-,>10 µM
CC1CC2CCC3CC(CCc4ccccc4)N=C(N1)N32,-,LDH,-,W2,-,9.93 µM
CCc1ccc(Nc2nc(NCCCCNc3ccnc4cc(Cl)ccc34)nc(N3CCOCC3)n2)cc1,-,-,-,W2,-,0.18 µM
C[C@H]1CCc2c([nH]c3ccccc23)[C@@]2(N1)C(=O)Nc1ccc(Cl)cc12,KAE678-resistant (G223R),SYBR Green / fluorescence,-,KAE678R-1,-,0.247 µM
C#CCCC1CC2CCCC3CC(C)NC(=N1)N23,-,LDH,-,W2,-,19.24 µM
NC(=O)C(CCCC[NH3+])NC(=O)CCCCCCCNC(=O)C(CCCC[NH3+])NC(=O)CCCCCCCNC(=O)C(CCCC[NH3+])NC(=O)CCCCCCCNC(=O)C(CCCC[NH3+])NC(=O)CCCCCCCNC(=O)C(CCCC[NH3+])NC(=O)CCCCCCCNC(=O)C(N)CCCC[NH3+],-,hypoxanthine uptake,-,FCR3,-,84 µM
Cc1cccc(CC[C@H]2C[C@H]3CCC[C@H]4C[C@@H](CCc5cccc(C)c5)NC(=N2)N34)c1,-,LDH,-,D6,-,1.37 µM
C[C@H]1Cc2c([nH]c3cc(Cl)c(F)cc23)[C@@]2(N1)C(=O)Nc1ccc(Cl)cc12,KAE678-resistant (G223R),SYBR Green / fluorescence,-,KAE678R-1,-,0.00414 µM
CCN(CC)CCCn1c(N)c(-c2nc3ccccc3[nH]2)c2nc(C#N)c(C#N)nc21,-,hypoxanthine uptake / radiometric,Erythrocytes,NF54,-,0.09 µM
Clc1cccc(CC[C@H]2C[C@H]3CC[C@H]4C[C@@H](CCc5cccc(Cl)c5)NC(=N2)N34)c1,-,LDH,-,W2,-,7.71 µM
N=C(N)c1ccc(OCCCOc2ccc(C(=N)N)cc2N)c(N)c1,-,hypoxanthine uptake,-,W2,-,0.175 µM
COc1ccc(Nc2nc(NCCCCNc3ccnc4cc(Cl)ccc34)nc(N3CCOCC3)n2)cc1,-,-,-,W2,-,0.71 µM
N#Cc1nc2c(-c3nc4ccccc4[nH]3)c(N)n(CCc3ccc(S(N)(=O)=O)cc3)c2nc1C#N,-,hypoxanthine uptake / radiometric,Erythrocytes,NF54,-,>100 µM
CCCCC[C@@H]1C[C@@H]2CC[C@@H]3C[C@H](CCCCC)NC(=N1)N32,-,LDH,-,W2,-,3.6 µM
CC[C@H]1OC(=O)[C@H](C)[C@@H](OC2C[C@@](C)(OC)[C@@H](O)[C@H](C)O2)[C@H](C)[C@@H](OC2O[C@H](C)C[C@H](N(C)C)[C@H]2O)[C@](C)(OC2C[C@@H](N(C)C)[C@@H](O)[C@H](C)O2)C[C@@H](C)C(=O)[C@H](C)[C@@H](O)[C@]1(C)O,-,fluorescence,RBC,3D7,48 h,9.7 µM
CC(C)=CCC[C@@H]1C[C@@H]2CCC[C@@H]3C[C@H](CCC=C(C)C)NC(=N1)N32,-,LDH,-,W2,-,2.18 µM
CCCCCCCCCCCC(=O)NC(CCCC[NH3+])C(=O)NC(CCCC[NH3+])C(=O)NCCCCCCCCCC(=O)NC(CCCC[NH3+])C(N)=O,-,hypoxanthine uptake,-,NF54,-,>10 µM
c1cc(C2=NCCN2)ccc1OCCCCCOc1ccc(C2=NCCN2)cc1,-,hypoxanthine uptake,-,W2,-,0.548 µM
CCCC[C@@H]1C[C@@H]2CCC[C@@H]3C[C@H](CCCC)NC(=N1)N32,-,LDH,-,W2,-,4.81 µM
CC[C@H]1OC(=O)[C@H](C)[C@@H](OC2C[C@@](C)(OC)[C@@H](O)[C@H](C)O2)[C@H](C)[C@@H](OC2O[C@H](C)C[C@H](N(C)C)[C@H]2O)[C@](C)(OC2C[C@H](N)[C@H](O)[C@H](C)O2)C[C@@H](C)C(=O)[C@H](C)[C@@H](O)[C@]1(C)O,-,fluorescence,RBC,W2 Mef,48 h,27.6 µM
Fc1ccc(Nc2nc(NCCCNc3ccnc4cc(Cl)ccc34)nc(N3CCOCC3)n2)cc1,-,-,-,W2,-,0.33 µM
N=C(N)c1ccc(NCCCCNc2ccc(C(=N)N)cc2N)c(N)c1,-,hypoxanthine uptake,-,W2,-,0.522 µM
Cn1nc(C(F)(F)F)c(-c2ccc(Br)cc2)c1NC(=O)Nc1ccc(F)cc1F,KAE609-resistant (D1247Y),SYBR Green / fluorescence,-,KAE609R-3,-,0.458 µM

The last 2 rows once more:

smiles | changes | read by | cells | strain or isolate | setting | result
N=C(N)c1ccc(NCCCCNc2ccc(C(=N)N)cc2N)c(N)c1 | - | hypoxanthine uptake | - | W2 | - | 0.522 µM
Cn1nc(C(F)(F)F)c(-c2ccc(Br)cc2)c1NC(=O)Nc1ccc(F)cc1F | KAE609-resistant (D1247Y) | SYBR Green / fluorescence | - | KAE609R-3 | - | 0.458 µM